Measured values published in article PMC12443476 (2025).

Target: biotinylated Tom70 ([…]) with N-terminal AVI tag (human, biotin (AVI tag, by co-expressed BirA))
Assay: SPR

B1: WT refolded Orf9b (apo-Orf9b homodimer) (natural protein)
chain: not shown
Work on B1 yielded a koff of 0.0039 s⁻¹.
